Activity change, negative = inhibition data for one compound are collected here from PubChem BioAssay AID504941 (Broad Institute, 2011).

The entries are a selection whose mix differs from that of the whole data set. Potency and affinity values are given separately. Activity calls are given as the source filed them. No rule for the calls is given here.

The nature of the test: E. coli Tat export inhibitors, dose response, cherry-pick, set 2, plate reader (AID 504941). To be noted: E. coli Tat transport reporter; at 38 µM (top of the series).
Turning to `O=C(NCC1(N2CCCCC2)CCCCC1)c1ccc(F)cc1`, the activity change, negative = inhibition is inactive: 26.8%.
